Our source for the inhibition values is PubChem BioAssay AID2170 (The Scripps Research Institute Molecular Screening Center, 2009).

Each structure is given as a SMILES string. This is a selection; strong and weak results do not stand in their true shares. The source made the active and inactive calls.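 Rule for the calls: active = mean inhibition over replicate wells above the hit cutoff set for the earlier primary screen (cut at about 29% in these data); inactive = the rest.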

For this assay, the system named is M18 aspartyl aminopeptidase (Plasmodium falciparum 3D7). The experiment in a line: PfM18AAP inhibitors, malaria aminopeptidase, confirmation, biochemical, QFRET, recombinant enzyme, triplicate (AID 2170).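 Note: 0% = median of test compound wells and 100% = 2 mM ZnCl2.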 Particulars: H-Glu-NHMec fluorogenic cleavage, at 7.35 µM, active compounds read high. The method in brief: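 System – recombinant P. falciparum M18 aspartyl aminopeptidase · Reagent – H-Glu-NHMec fluorogenic substrate · Dosing – 7.35 µM single dose · Incubation – Enzyme–compound pre-incubation 30 min, substrate reaction 90 min, both 25 °C · Technique – fluorescence, excitation 340 nm, emission 450 nm, read at 0 and 90 min · Controls – ZnCl2 inhibitor control · Repeats – n of 3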
A word on the inhibition: it is the relative decrease from the control value, in per cent. Regarding `Cc1nc2ccc3ccccc3c2o1.O=[N+]([O-])c1cc([N+](=O)[O-])c(O)c([N+](=O)[O-])c1`, the inhibition is inactive: 11.7%.
`CP(=S)(Nn1cnnc1)Oc1ccccc1` (configuration not stated): the inhibition was active: 43%.
